Measurements reported in PubChem BioAssay AID624099 (ICCB-Longwood, 2012)
Purpose: 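Knock-downs relieving repression by E2 of an HPV18 LCR luciferase reporter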 (primary screen). Cells: human C33A cervical carcinoma cells (HPV-negative) stably expressing BPV1 E2 and an HPV18 LCR luciferase reporter. Knock-down reagent: siRNA pool against human genes, 40 nM. Timing: 72 h. Detection: 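Per-well luciferase luminescence, z-scored on each plate against the plate mean and SD with control wells left out, then averaged across three replicate plates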. Scale: mean z-score and z-score: higher = stronger reporter signal, weaker E2 silencing. Active means: 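Hit if mean z-score reaches 2 and two or more of three replicate z-scores also reach 2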.
The whole screen tested about 21,000 reagents; below is an unselected part. Over the whole deposit, 497 (2.4%) got an active call. 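Higher z means weaker E2 silencing; only reporter increases were scored, and knock-downs that hurt cell survival may mask genuine repressor factors.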 Entries without a mark were called inactive.

What did the screen give for GUCD1?
mean z-score: -1; z-score, replicate A: -1.1; z-score, replicate B: -1.04; z-score, replicate C: -0.87

What is on record for RHAG?
mean z-score: -0.75; z-score, replicate A: -0.78; z-score, replicate B: -0.87; z-score, replicate C: -0.61

How did the screen score CPNE8?
mean z-score: 1.45; z-score, replicate A: 1.46; z-score, replicate B: 1.72; z-score, replicate C: 1.18

How did the screen score MEGF10?
mean z-score: 0.01; z-score, replicate A: 0.03; z-score, replicate B: 0.08; z-score, replicate C: -0.09

Which result is listed for CHMP4B?
mean z-score: -1.46; z-score, replicate A: -1.58; z-score, replicate B: -1.53; z-score, replicate C: -1.26

With MAN2C1, how do the results read?
mean z-score: -0.51; z-score, replicate A: -0.46; z-score, replicate B: -0.48; z-score, replicate C: -0.6

What is on record for TICAM1?
mean z-score: -0.72; z-score, replicate A: -0.66; z-score, replicate B: -0.54; z-score, replicate C: -0.96

Records listed so far whose gene name starts with M or m:
MEGF10: mean z-score = 0.01; z-score, replicate A = 0.03; z-score, replicate B = 0.08; z-score, replicate C = -0.09
MAN2C1: mean z-score = -0.51; z-score, replicate A = -0.46; z-score, replicate B = -0.48; z-score, replicate C = -0.6

Additional results follow.
With OR8B8, what was measured?
mean z-score: 0.53; z-score, replicate A: 0.36; z-score, replicate B: 0.54; z-score, replicate C: 0.69

For LINC02092, how do the results read?
mean z-score: 0.89; z-score, replicate A: 0.99; z-score, replicate B: 1.14; z-score, replicate C: 0.54

What is on record for CRTC3?
mean z-score: -0.79; z-score, replicate A: -0.62; z-score, replicate B: -0.99; z-score, replicate C: -0.76

What is on record for FITM2?
mean z-score: -1.81; z-score, replicate A: -1.95; z-score, replicate B: -1.62; z-score, replicate C: -1.86

Which result is listed for ABCG4?
mean z-score: -1.53; z-score, replicate A: -1.6; z-score, replicate B: -1.38; z-score, replicate C: -1.6

Which result is listed for NGEF?
mean z-score: 1.31; z-score, replicate A: 1.45; z-score, replicate B: 1.13; z-score, replicate C: 1.36

With USH2A, what was measured?
mean z-score: -0.09; z-score, replicate A: -0.17; z-score, replicate B: -0.09; z-score, replicate C: -0.02
